What all share (assay): pull-down binding Z-score (relative to library population); higher = stronger binding
Holding throughout (settings): RNA library: Library-2

For data set [1], the system named is TO-3-N3 (biotin conjugate). A digest of the protocol:
(§1)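 A heat-folded, dye-end-labelled (Cy5 or Cy3) RNA library (1 μg, phosphate/NaCl/KCl buffer) was exposed for 60 min at 25 °C to streptavidin beads holding 100 pmol of biotin-conjugated small molecule. RNA retained on the beads was eluted in hot SDS and hybridised to a DNA barcode microarray for 20 h at 55.5 °C. Binding scores were Z-scores against the library mean and standard deviation, calculated after subtracting beads alone and taking trimmed means of replicate probes.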

The subject of data set [2] is TO-3-N3-2 (biotin conjugate). A digest of the protocol: as §1
The test system of data set [3] is TO-N3 (biotin conjugate). In a few lines:
as §1

In data set [4] the test system is TO-N3-2 (biotin conjugate). In a few lines: as §1

Take “ACUGUGUAUGAUGAUGGU [SHAPE_invitro_SARS-CoV-2_Motif_210]”: the “pull-down binding Z-score” value in data set [1] was 0.258; in data set [2] it was 0.191; in data set [3], 0.279; in data set [4], -0.247.

Take “ACUGUAGCUGCAUUUCACCAAGAAUGUAGUUUACAGU [SHAPE_invivo_SARS-CoV-2_Motif_528]”: the “pull-down binding Z-score” value was -0.817 in data set [1], -0.583 in data set [2], -1.19 in data set [3] and -1.86 in data set [4].

As for “AGCAUCUACAGAUACUUGUUUUGCU [DMSMaPseq_invitro_SARS-CoV-2_Motif_159]”, the “pull-down binding Z-score” value in data set [1] is -0.284; in data set [2], -0.512; in data set [3], -0.496; in data set [4], -1.05.

With “AGACAUCAUGCUAAUGAGUACAGAUUGUAUCUCGAUGCUUAUAACAUGAUGAUCU”, the “pull-down binding Z-score” value in data set [1] is -0.306; in data set [2], 0.0465; in data set [3] it was -0.0243; in data set [4], 1.46.

For “AGGACCUGCCUAAAGAAAUCACUGUUGCUACAUCACGAACGCUUUCUUAUUACAAAUUGGGAGCUUCGCAGCGUGUAGCAGGUGACUCAGGUUUU”, the “pull-down binding Z-score” value in data set [1] is -0.0595; in data set [2] it was -0.0157; in data set [3], 0.225; in data set [4] it was 0.976.

Turning to AGAUUGGUCCUAUUCUGGACAAUCU, the “pull-down binding Z-score” value is 0.176 in data set [1], -0.412 in data set [2], -0.512 in data set [3] and -0.819 in data set [4].

For the sequence “UUGAACAUGUUACCUUCUUCAUCUACAAUAAAAUUGUUGAUGAGCCUGAAGAACAUGUCCAA [DMSMaPseq_invitro_SARS-CoV-2_Motif_469]”, the “pull-down binding Z-score” value in data set [1] was -0.0243; in data set [2], 0.0769; in data set [4], -0.961.

On to “ACUACACAAUUGGAAUUGUGUUAAUUGUGAUACAUUCUGUGCUGGUAGU [DMSMaPseq_invitro_SARS-CoV-2_Motif_143]”, for which the “pull-down binding Z-score” value in data set [1] is 0.343; in data set [2], -0.0221; in data set [3], 0.171; in data set [4], -0.877.

With “AGCUAUGACCCAAAUGUAUAAACAGGCU [SHAPE_invitro_SARS-CoV-2_Motif_222]”, the “pull-down binding Z-score” value is -0.734 in data set [1], -0.369 in data set [2], -0.903 in data set [3] and -0.538 in data set [4].

On to “AGAAGCUGCUCGGUAUAUGAGAUCUCUCAAAGUGCCAGCUACAGUUUCU”, for which the “pull-down binding Z-score” value worked out at 0.774 in data set [1], 0.656 in data set [2], 0.939 in data set [3] and 1.38 in data set [4].

AGAGUGAGUAAGAUACUUACCUG [U1snRNP5ss-17]: the “pull-down binding Z-score” value is 0.232 in data set [1], 0.337 in data set [2], 1.2 in data set [3] and 2.21 in data set [4].

On to “AGAGUUUAUUCUAGUGCGAAUAAUUGCACUUUUGAAUAUGUCUCU [SHAPE_invivo_SARS-CoV-2_Motif_414]”, for which the “pull-down binding Z-score” value in data set [1] is -0.752; in data set [2], -0.248; in data set [3], -0.99; in data set [4] it was -1.12.

For UUGACCGCCUCAAUGAGGUUGCCAA, the figures for the “pull-down binding Z-score” value in data set [1], in data set [2] and in data set [4] were -0.712, -0.423 and -0.925, respectively.

For the sequence “AGCUGGUGCUGCAGCU [SHAPE_invitro_SARS-CoV-2_Motif_405]”, the “pull-down binding Z-score” value in data set [1] was -0.149; in data set [2], -0.232; in data set [3], -0.168; in data set [4], 0.184.

Take ACUCACUGUCUUUUUUGAUGGUAGAGU: the “pull-down binding Z-score” value in data set [1] was -0.149; in data set [2], -0.268; in data set [3], -0.43; in data set [4], -1.25.

“AGCAGCUGGUACGGACACAACUAUUACAGUUAAUGUUUUAGCUUGGUUGUACGCUGCU [DMSMaPseq_invitro_SARS-CoV-2_Motif_191]”: the “pull-down binding Z-score” value in data set [1] is 0.519; in data set [2], -0.143; in data set [3], 0.53; in data set [4] it was 0.368.

“AGAUGCUUCUGGUAAGCCAGUACCAUAUUGUUAUGAUACCAAUGUACUAGAAGGUUCU”: the “pull-down binding Z-score” value in data set [1] is 0.592; in data set [2], 0.0988; in data set [3] it was 0.594; in data set [4], -0.0854.

As for “AGGAAAAGCAGGGCUCAGGGCCAGAGAGACUGGGCAUAGAACUAAGGAGGAUGGUGUCCUCCUGACUGCAUCUCUCUUCCCUCUCCCACCCCUUGCAG [hsa-mir-6892]”, the “pull-down binding Z-score” value in data set [1] is -0.00154; in data set [2] it was 0.297; in data set [3], 0.661; in data set [4], 1.12.

For “UUGACUGUAGUGCGCGUCAUAUUAAUGCGCAGGUAGCAA [DMSMaPseq_invitro_SARS-CoV-2_Motif_152]”, the results for the “pull-down binding Z-score” value in data set [1], in data set [2] and in data set [4] were -0.59, -0.346 and 0.18, respectively.

As to “ACUCGUGUAUUGAAACGAUGGAGGUUGUUCAGCAAACACGAGU [IAV_invivo_PB1_2_Motif_7+IAV_invivo_PB1_2_Motif_7]”, the “pull-down binding Z-score” value in data set [1] was 0.495; in data set [2] it was -0.124; in data set [3] it was 0.435; in data set [4] it was -0.686.

For “UUUACGCAUAUUUGCGUAAA [SHAPE_invitro_SARS-CoV-2_Motif_288]”, the “pull-down binding Z-score” value in data set [1] was -0.428; in data set [2], -0.466; in data set [3] it was -0.674; in data set [4] it was -1.54.

With “ACUUAAGGAUUGUCCAGCUGUUGCUAAACAUGACUUCUUUAAGU”, the “pull-down binding Z-score” value in data set [1] is 0.011; in data set [2] it was -0.0785; in data set [3], -0.16; in data set [4] it was -0.914.

For the sequence “UUUAAACACGCUUGUUAAACAACUUAGCUCCAAUUUUGGUGCAAUUUCAAGUGUUUUAAA [DMSMaPseq_invitro_SARS-CoV-2_Motif_435]”, the “pull-down binding Z-score” value in data set [1] is -1.04; in data set [2], -0.436; in data set [3] it was -1.16; in data set [4], -0.709.

Regarding UUGUGGUGAAACUUCAUGGCAG, the “pull-down binding Z-score” value is -0.378 in data set [1], -0.3 in data set [2], -0.269 in data set [3] and 0.0697 in data set [4].

For the sequence “UUGUGCUAGUGAGUACACUGGUAAUUACCAGUGUGGUCACUAUAAACAUAUAACUUCUAAAGAAACUUUGUAUUGCAUAG”, the “pull-down binding Z-score” value was -0.188 in data set [1], -0.099 in data set [2], -0.144 in data set [3] and -0.634 in data set [4].

On to “UUGCUGUAGUUGUCUCAAGGGCUGUUGUUCUUGUGGAUCCUGCUGCAA”, for which the “pull-down binding Z-score” value is -0.067 in data set [1], -0.236 in data set [2], 0.098 in data set [3] and 0.0832 in data set [4].

As for “AGAUAAAUAUUUUAAGAAUCAUACAUCACCAGAUGUUGAUUUAGGUGACAUCU”, the “pull-down binding Z-score” value in data set [1] was 0.515; in data set [2], 0.599; in data set [3] it was 0.372; in data set [4], 0.224.

For “AGGGCCGGUCGGCCGCCCCGGGUGCCGCGCGGUGCCGCCGGCGGCGGUGAGGCCCCGCGCGUGUGUCCCGGCUGCGGUCGGCCGCGCUCG [hsa-mir-3648-1_3648-2]”, the “pull-down binding Z-score” value in data set [1] is 0.802; in data set [2] it was -0.298; in data set [3], 1.21; in data set [4], 2.33.

With “AGGGUGUUAUCACGCAUGAUGUUUCAUCUGCAAUUAACAGGCCACAAAUAGGCGUGGUAAGAGAAUUCCUUACACGUAACCCU [SHAPE_invitro_SARS-CoV-2_Multi_49_ComplexLevel_1]”, the “pull-down binding Z-score” value in data set [1] was -0.742; in data set [2], -0.0901; in data set [3], -0.586; in data set [4] it was 0.333.

Regarding “AGACUCAUCUCUAUGAUGGGUUU [DMSMaPseq_invitro_SARS-CoV-2_Motif_324]”, the “pull-down binding Z-score” value was 0.0922 in data set [1], -0.67 in data set [2], -0.252 in data set [3] and -1.43 in data set [4].

For the sequence UUGAUGAAAUUUCAA, the entries for the “pull-down binding Z-score” value in data set [1], in data set [2] and in data set [4] were -0.158, -0.362 and -1.51, respectively.

Turning to UUGCAUAAUGUCUGAUAGAGACCUUUAUGACAA, the “pull-down binding Z-score” value in data set [1] was -0.845; in data set [2], -0.353; in data set [3], -0.821; in data set [4], -0.837.

For the sequence UUAUGAUUCAAUGAGUUAUGA, the “pull-down binding Z-score” value in data set [1] was -0.887; in data set [2], -0.758; in data set [3], -1.32; in data set [4], -1.52.

For the sequence “UUGACUAUACAGAAAUUUCAUUUAUGCUUUGGUGUAAAGAUGGCCAUGUAGAAACAUUUUACCCAAAAUUACAAUCUAGUCAA [SHAPE_invivo_SARS-CoV-2_Motif_386]”, the “pull-down binding Z-score” value in data set [1] was -0.238; in data set [2], 0.0463; in data set [4] it was -0.668.

For the origin of these results see the supplement of paper PMC11865577.
